Assay results taken from ChEMBL document CHEMBL1129975, “Depsides and depsidones as inhibitors of HIV-1 integrase: discovery of novel inhibitors through 3D database searching” (J Med Chem, 1997).

Amino acid sequences for entries named in this document (tags omitted). Residues count along the entry.
UniProt Q7ZJM1, 1-288: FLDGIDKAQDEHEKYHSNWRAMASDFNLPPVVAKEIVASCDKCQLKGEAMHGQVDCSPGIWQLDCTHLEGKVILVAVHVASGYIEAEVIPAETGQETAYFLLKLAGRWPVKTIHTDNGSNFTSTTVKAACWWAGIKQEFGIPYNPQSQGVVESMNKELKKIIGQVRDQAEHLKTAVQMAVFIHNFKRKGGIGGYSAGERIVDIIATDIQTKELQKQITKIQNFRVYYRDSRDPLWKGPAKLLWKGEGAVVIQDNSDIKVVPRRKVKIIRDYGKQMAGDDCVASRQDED

Target: Human immunodeficiency virus type 1 integrase (Human immunodeficiency virus 1) (UniProt Q7ZJM1)
Assay: Percentage inhibition of compound against 3'-processing of HIV-1 integrase at 100 ug/mL

O=C(O)c1c([N+](=O)[O-])cc([N+](=O)[O-])c(-c2c([N+](=O)[O-])cc([N+](=O)[O-])c(C(=O)O)c2[N+](=O)[O-])c1[N+](=O)[O-]
inhibition: 97.9%
